Compound potency records, mixed from different reports. Data source: NIAID ChemDB in PubChem.

All rows: whole-cell or culture tests; agent: Coxsackie virus; cells: VERO; endpoint: EC50

Conditions beyond the fields shown may differ between rows. ECn: concentration that inhibits the pathogen or its effect by n%.

{"structure": "CC(=O)Nn1c(-c2cn(-c3ccccc3)nc2-c2ccccc2)n[nH]c1=S", "strain or isolate": "TYPE B4", "read by": "cytopathic effect", "value": ">80 µg/mL"}
{"structure": "Nc1nc2c(ccn2[C@H]2CO[C@@H](CO)C2)c(=O)[nH]1", "strain or isolate": "TYPE B4", "read by": "cytopathic effect", "value": ">200 µg/mL"}
{"structure": "Cc1ccc(C(=O)CCCCOc2ccc(C3=NCC(C)O3)cc2Cl)s1", "strain or isolate": "TYPE B5", "read by": "cytopathic effect", "value": "17.24 µM"}
{"structure": "Cc1nn2c(-c3cn(-c4ccccc4)nc3-c3ccccc3)nnc2s1", "strain or isolate": "TYPE B4", "read by": "cytopathic effect", "value": ">3.2 µg/mL"}
{"structure": "CC(=O)OCCOCN1C(C)=CC(N)=[N+](c2ccccc2)S1(=O)=O", "strain or isolate": "TYPE B4", "value": ">400 µg/mL"}
{"structure": "O=c1[nH]cnc2c1ncn2C1C[C@H](CO)[C@@H](CO)C1", "strain or isolate": "B4", "value": ">100 µg/mL"}
{"structure": "Nc1nc2c(ncn2[C@H]2CO[C@@H](CO)C2)c(=O)[nH]1", "strain or isolate": "TYPE B4", "read by": "cytopathic effect", "value": ">400 µg/mL"}
{"structure": "NC1=Nn2c(nnc2-c2cn(-c3ccccc3)nc2-c2ccccc2)SC1", "strain or isolate": "TYPE B4", "read by": "cytopathic effect", "value": ">16 µg/mL"}
{"structure": "NC(=O)CSc1ncnc2c1cnn2COCCO", "strain or isolate": "TYPE B4", "read by": "cytopathic effect", "value": ">400 µg/mL"}
{"structure": "CC1(CO)CCC(Cn2nnc3c(=O)[nH]c(N)nc32)C1(C)C", "strain or isolate": "TYPE B4", "read by": "cytopathic effect", "value": ">200 µg/mL"}
{"structure": "CCOC(=O)C1=CN(COCCOC(C)=O)S(=O)(=O)N=C1N", "strain or isolate": "TYPE B4", "value": ">400 µg/mL"}
{"structure": "CCC(Sc1ncnc2c1cnn2COCC(O)CO)C(N)=O", "strain or isolate": "TYPE B4", "read by": "cytopathic effect", "value": ">400 µg/mL"}
{"structure": "CC1(CO)CCC(Cn2nnc3c(=O)[nH]cnc32)C1(C)C", "strain or isolate": "TYPE B4", "read by": "cytopathic effect", "value": ">400 µg/mL"}
{"structure": "COCC1=C[C@@H](n2cnc3c(N)ncnc32)[C@H](O)[C@@H]1O", "strain or isolate": "TYPE B4", "read by": "cytopathic effect", "value": ">400 µg/mL"}
{"structure": "O=c1[nH]c(=O)n(C2C[C@H](CO)[C@@H](CO)C2)cc1I", "strain or isolate": "B4", "value": ">100 µg/mL"}
{"structure": "COc1ccc(-c2cc(N(C)C)no2)c(O)c1", "strain or isolate": "ATCC VR28 (TYPE B1)", "read by": "cytopathic effect", "value": ">427 µM"}
{"structure": "OC[C@H]1CC(n2cnc3c(NC4CC4)ncnc32)C[C@@H]1CO", "strain or isolate": "B4", "value": ">100 µg/mL"}
{"structure": "Nc1ncnc2c1cnn2Cc1cn(CCCCO)nn1", "strain or isolate": "B4", "value": ">400 µg/mL"}
{"structure": "CC1=CC(=O)N(c2ccccc2)S(=O)(=O)N1COCCO", "strain or isolate": "TYPE B4", "value": ">400 µg/mL"}
{"structure": "CC1(CO)CCC(Cn2nnc3c(N)nc(N)nc32)C1(C)C", "strain or isolate": "TYPE B4", "read by": "cytopathic effect", "value": ">200 µg/mL"}
{"structure": "CCN(CC)c1cc(-c2ccc(O)cc2O)on1", "strain or isolate": "ATCC VR28 (TYPE B1)", "read by": "cytopathic effect", "value": "12 µM"}
{"structure": "CC1(CO)CCC(Cn2nnc3c(N)ncnc32)C1(C)C", "strain or isolate": "TYPE B4", "read by": "cytopathic effect", "value": ">40 µg/mL"}
{"structure": "N#CC1=CN(COCCO)S(=O)(=O)N=C1N", "strain or isolate": "TYPE B4", "value": ">400 µg/mL"}
{"structure": "CCOC(=O)c1ccc(OCCCCC(=O)c2ccc(C)s2)cc1", "strain or isolate": "TYPE B5", "read by": "cytopathic effect", "value": ">26.72 µM"}
{"structure": "[N-]=[N+]=NC(CBr)c1cc([C@H]2C[C@H](O)[C@@H](CO)O2)c(F)cc1F", "strain or isolate": "TYPE B4", "read by": "cytopathic effect", "value": ">16 µg/mL"}
{"structure": "Cc1cc(CCCCCCCOc2ccc(C3=NCCO3)cc2)on1", "strain or isolate": "TYPE B5", "read by": "cytopathic effect", "value": "12.08 µM"}
{"structure": "CC1(CO)CCC(Cn2cnc3c(=O)[nH]c(N)nc32)C1(C)C", "strain or isolate": "TYPE B4", "read by": "cytopathic effect", "value": ">400 µg/mL"}
{"structure": "CC1(C)[C@@H](CCO)C[C@H]1n1cnc2c(=O)[nH]cnc21", "strain or isolate": "TYPE B4", "read by": "cytopathic effect", "value": ">400 µg/mL"}
{"structure": "CCN(CC)c1cc(-c2ccc(OC)cc2OC)on1", "strain or isolate": "ATCC VR28 (TYPE B1)", "read by": "cytopathic effect", "value": "20 µM"}
{"structure": "O=C(Nn1c(-c2cn(-c3ccccc3)nc2-c2ccccc2)n[nH]c1=S)c1ccccc1", "strain or isolate": "TYPE B4", "read by": "cytopathic effect", "value": ">16 µg/mL"}
{"structure": "CC=NC(=N)c1nc(-c2cccc(C)c2)n(Cc2ccccc2)n1", "strain or isolate": "TYPE B4", "read by": "cytopathic effect", "value": ">10 µg/mL"}
{"structure": "CC(Sc1ncnc2c1cnn2COCC(O)CO)C(N)=O", "strain or isolate": "TYPE B4", "read by": "cytopathic effect", "value": ">400 µg/mL"}
{"structure": "CSCC1=C[C@@H](n2cnc3c(N)ncnc32)[C@H](O)[C@@H]1O", "strain or isolate": "TYPE B4", "read by": "cytopathic effect", "value": ">200 µg/mL"}
{"structure": "COc1ccc(-c2cc(N3CCCCC3)no2)c(O)c1", "strain or isolate": "ATCC VR28 (TYPE B1)", "read by": "cytopathic effect", "value": ">364 µM"}
{"structure": "CC1(CO)CCC(Cn2nnc3c(Cl)ncnc32)C1(C)C", "strain or isolate": "TYPE B4", "read by": "cytopathic effect", "value": ">40 µg/mL"}
{"structure": "CC=NC(=N)c1nc(-c2cccc(C)c2)n(COCCO)n1", "strain or isolate": "TYPE B4", "read by": "cytopathic effect", "value": ">20 µg/mL"}
{"structure": "COc1ncnc2c1cnn2Cc1cn(CCCCO)nn1", "strain or isolate": "B4", "value": ">400 µg/mL"}
{"structure": "C=C(N=CC)c1nc(-c2ccc(C)cc2)n([C@@H]2O[C@H](CO)[C@@H](O)[C@H]2O)n1", "strain or isolate": "TYPE B4", "read by": "cytopathic effect", "value": ">40 µg/mL"}
{"structure": "CC1(C)[C@@H](CCO)C[C@H]1n1nnc2c(=O)[nH]c(N)nc21", "strain or isolate": "TYPE B4", "read by": "cytopathic effect", "value": ">400 µg/mL"}
{"structure": "CC=NC(=N)c1nc(-c2ccc(C)cc2)n(Cc2ccccc2)n1", "strain or isolate": "TYPE B4", "read by": "cytopathic effect", "value": ">10 µg/mL"}
{"structure": "S=c1[nH]n2c(-c3cn(-c4ccccc4)nc3-c3ccccc3)nnc2s1", "strain or isolate": "TYPE B4", "read by": "cytopathic effect", "value": ">80 µg/mL"}
{"structure": "CC=NC(=N)c1nc(-c2ccc(C)cc2)n(COCCO)n1", "strain or isolate": "TYPE B4", "read by": "cytopathic effect", "value": ">100 µg/mL"}
{"structure": "OCCCCn1cc(Cn2ncc3c(SCc4ccccc4)ncnc32)nn1", "strain or isolate": "B4", "value": ">400 µg/mL"}
{"structure": "C=C(N=CC)c1nc(-c2cccc(C)c2)n([C@@H]2O[C@H](CO)[C@@H](O)[C@H]2O)n1", "strain or isolate": "TYPE B4", "read by": "cytopathic effect", "value": ">40 µg/mL"}
{"structure": "Cc1ccc(C(=O)CCCCOc2ccc(C3=NCCO3)cc2)s1", "strain or isolate": "TYPE B5", "read by": "cytopathic effect", "value": "7.28 µM"}
{"structure": "CC=NC(=N)c1nc(-c2ccc(OC)cc2)n(C/C=C/c2ccccc2)n1", "strain or isolate": "TYPE B4", "read by": "cytopathic effect", "value": ">100 µg/mL"}
{"structure": "Cc1ccc(C(=O)CCCCCCOc2ccc(C3=NC(C)CO3)cc2)s1", "strain or isolate": "TYPE B2", "read by": "cytopathic effect", "value": ">25.97 µM"}
{"structure": "CC=NC(=N)c1nc(-c2ccccc2)n(COCCO)n1", "strain or isolate": "TYPE B4", "read by": "cytopathic effect", "value": ">200 µg/mL"}
{"structure": "CC1(C)[C@@H](CCO)C[C@H]1n1nnc2c(=O)[nH]cnc21", "strain or isolate": "TYPE B4", "read by": "cytopathic effect", "value": ">100 µg/mL"}

The first 4 rows once more:

structure,strain or isolate,read by,value
CC(=O)Nn1c(-c2cn(-c3ccccc3)nc2-c2ccccc2)n[nH]c1=S,TYPE B4,cytopathic effect,>80 µg/mL
Nc1nc2c(ccn2[C@H]2CO[C@@H](CO)C2)c(=O)[nH]1,TYPE B4,cytopathic effect,>200 µg/mL
Cc1ccc(C(=O)CCCCOc2ccc(C3=NCC(C)O3)cc2Cl)s1,TYPE B5,cytopathic effect,17.24 µM
Cc1nn2c(-c3cn(-c4ccccc4)nc3-c3ccccc3)nnc2s1,TYPE B4,cytopathic effect,>3.2 µg/mL